Anti-infective test results gathered from many reports (values: NIAID ChemDB through PubChem).

All rows: growth or infection tests; organism: HIV-1; cells: MT-2; endpoint: EC50

ECn is the concentration giving n% inhibition of infection, replication or growth. Rows are shuffled and stem from different studies. Blank or dashed fields: not listed here.

compound	strain or isolate	changes	read by	setting	value
[2H]C(CCN)(CNC[C@H](O)[C@@]12CC[C@]3(C)[C@H](CC[C@@H]4[C@@]5(C)CC[C@H](OC(=O)[C@H]6C[C@@H](C(=O)O)C6(C)C)C(C)(C)[C@@H]5CC[C@]43C)C1=C(C(C)C)C(=O)C2)NC(=O)c1ccc(Cl)cc1	92HT599	-	p24 / ELISA	-	<1 µM
Cc1cc(C(=O)N[C@@]23CC[C@]4(C)[C@H](CC[C@@H]5[C@@]6(C)CC[C@H](OC(=O)CC(C)(C)C(=O)O)C(C)(C)[C@@H]6CC[C@]54C)C2=C(C(C)C)C(=O)C3)cc(C)n1	IIIB	-	RT activity	30% human serum	<0.199 µM
CCCCSc1ccc(-c2cnc(C)c([C@H](OC(C)(C)C)C(=O)O)c2N2CCC(C)(C)CC2)cn1	NL4-3	-	luminescence	-	0.005 µM
Cc1ccc(N(C)C(=O)[C@H](Cc2cc(F)cc(F)c2)NC(=O)NS(=O)(=O)N[C@@H](Cc2cc(F)cc(F)c2)C(=O)N(C)c2ccc(C)cn2)nc1	NL4-3	-	luciferase	-	0.4 µM
CC(C)C1=C2[C@H]3CC[C@@H]4[C@@]5(C)CC[C@H](OC(=O)[C@H]6C[C@@H](C(=O)O)C6(C)C)C(C)(C)[C@@H]5CC[C@@]4(C)[C@]3(C)CC[C@@]2([C@@H](O)CN(CCN(C)C)Cc2ccccc2Cl)CC1=O	92HT599	-	p24 / ELISA	-	<1 µM
Cc1cccc(Cl)c1OCCNc1ccc(-c2cnc(C)c([C@H](OC(C)(C)C)C(=O)O)c2N2CCC(C)(C)CC2)cn1	NL4-3	-	luminescence	-	0.005 µM
COCCOc1cc(Cl)ccc1C(=O)NC(C)(C)C(=O)NC[C@H](O)[C@@]12CC[C@]3(C)[C@H](CC[C@@H]4[C@@]5(C)CC[C@H](OC(=O)[C@H]6C[C@@H](C(=O)O)C6(C)C)C(C)(C)[C@@H]5CC[C@]43C)C1=C(C(C)C)C(=O)C2	92HT599	-	p24 / ELISA	-	<1 µM
C[C@H](Cn1cnc2c(N)ncnc21)OCP(=O)(O)O	Clinical isolate	A62V (mixture)/L74V/V75I (mixture)/K103N/Y115F/F116Y/Q151M	recombinant virus assay	-	0.0052 µM
CC(C)C1=C2[C@H]3CC[C@@H]4[C@@]5(C)CC[C@H](OC(=O)[C@H]6C[C@@H](C(=O)O)C6(C)C)C(C)(C)[C@@H]5CC[C@@]4(C)[C@]3(C)CC[C@@]2(CC(=O)NC(C)(CO)CNC(=O)c2ccc(Cl)cc2)CC1=O	92HT599	-	p24 / ELISA	-	<1 µM
Cc1cc(C(=O)N[C@@]23CC[C@]4(C)[C@H](CC[C@@H]5[C@@]6(C)CC[C@H](OC(=O)CC(C)(C)C(=O)O)C(C)(C)[C@@H]6CC[C@]54C)C2=C(C(C)C)C(=O)C3)ccn1	IIIB	-	RT activity	30% human serum	<0.199 µM
COc1ccc(N(C)C(=O)[C@H](Cc2cc(F)cc(F)c2)NC(=O)c2cc(F)c(F)cc2C(=O)N[C@@H](Cc2cc(F)cc(F)c2)C(=O)N(C)c2ccc(OC)cc2)cc1	NL4-3	-	luciferase	-	0.09 µM
Cc1cc(F)ccc1OCCOc1ccc(-c2cnc(C)c([C@H](OC(C)(C)C)C(=O)O)c2N2CCC(C)(C)CC2)nc1	NL4-3	-	luminescence	-	0.001 µM
COc1ccc(N(C)C(=O)[C@H](Cc2ccccc2)NC(=O)Cn2c(=O)n(CC(=O)N[C@@H](Cc3ccccc3)C(=O)N(C)c3ccc(OC)cc3)c3c(Cl)cccc32)cc1	NL4-3	-	luciferase	-	0.07 µM
Cc1cccc(Cl)c1OCCOc1ccc(-c2cnc(C)c([C@H](OC(C)(C)C)C(=O)O)c2N2CCC(C)(C)CC2)cn1	NL4-3	-	luminescence	-	0.005 µM
COc1ccc(N(C)C(=O)[C@H](Cc2ccccc2)NC(=O)c2cc(C(=O)N[C@@H](Cc3ccccc3)C(=O)N(C)c3ccc(OC)cc3)n(C)n2)cc1	NL4-3	-	luciferase	-	2.13 µM
CC(C)C1=C2[C@H]3CC[C@@H]4[C@@]5(C)CC[C@H](OC(=O)CC(C)(C)C(=O)O)C(C)(C)[C@@H]5CC[C@@]4(C)[C@]3(C)CC[C@@]2(N)CC1=O	IIIB	-	RT activity	-	<0.199 µM
Cc1ncc(-c2ccc(OCCCOc3ccccc3)cn2)c(N2CCC(C)(C)CC2)c1[C@H](OC(C)(C)C)C(=O)O	NL4-3	-	luminescence	-	0.0012 µM
CC(C)C1=C2[C@H]3CC[C@@H]4[C@@]5(C)CC[C@H](OC(=O)CC(C)(C)C(=O)O)C(C)(C)[C@@H]5CC[C@@]4(C)[C@]3(C)CC[C@@]2(NC(=O)c2cccs2)CC1=O	IIIB	-	RT activity	30% human serum	<0.199 µM
CN(C(=O)[C@H](Cc1ccccc1)NC(=O)c1ccc(F)c(C(=O)N[C@@H](Cc2ccccc2)C(=O)N(C)c2ccc3scnc3c2)c1)c1ccc2scnc2c1	NL4-3	-	luciferase	-	0.06 µM
CC(C)C1=C2[C@H]3CC[C@@H]4[C@@]5(C)CC[C@H](OC(=O)CC(C)(C)C(=O)O)C(C)(C)[C@@H]5CC[C@@]4(C)[C@]3(C)CC[C@@]2(NC(=O)CCCN2CCCC2)CC1=O	IIIB	-	RT activity	30% human serum	<0.199 µM
CC(C)C1=C2[C@H]3CC[C@@H]4[C@@]5(C)CC[C@H](OC(=O)[C@H]6C[C@@H](C(=O)O)C6(C)C)C(C)(C)[C@@H]5CC[C@@]4(C)[C@]3(C)CC[C@@]2([C@@H](O)CNC(=O)c2ccccc2Cl)CC1=O	92HT599	-	p24 / ELISA	-	<1 µM
CC(C)C1=C2C3CCC4[C@@]5(C)CC[C@H](OC(=O)CC(C)(C)C(=O)O)C(C)(C)C5CC[C@@]4(C)[C@]3(C)CC[C@@]2(NC(=O)NCC2CCC(F)(F)CC2)CC1=O	IIIB	-	RT activity	30% human serum	<0.199 µM
CC(C)C1=C2[C@H]3CC[C@@H]4[C@@]5(C)CC[C@H](OC(=O)[C@H]6C[C@@H](C(=O)O)C6(C)C)C(C)(C)[C@@H]5CC[C@@]4(C)[C@]3(C)CC[C@@]2(CCNCC2CCCCC2)CC1=O	92HT599	-	p24 / ELISA	-	<1 µM
CC(C)C1=C2C3CCC4[C@@]5(C)CC[C@H](OC(=O)[C@H]6CC[C@@](C)(C(=O)O)C6(C)C)C(C)(C)C5CC[C@@]4(C)[C@]3(C)CC[C@@]2(N)CC1=O	IIIB	-	RT activity	30% human serum	<0.199 µM
Nc1nc(NC2CC2)c2ncn([C@H]3C=C[C@@H](CO)C3)c2n1	Clinical isolate	M41L/M184V/L210W/T215Y	recombinant virus assay	-	0.5456 µM
CC(C)C1=C2C3CC[C@@H]4[C@@]5(C)CC[C@H](OC(=O)CC(C)(C)C(=O)O)C(C)(C)[C@@H]5CC[C@@]4(C)[C@]3(C)CC[C@@]2(NC(=O)Nc2ccncc2)CC1=O	IIIB	-	RT activity	30% human serum	<0.199 µM
CC(C)C1=C2[C@H]3CC[C@@H]4[C@@]5(C)CC[C@H](OC(=O)[C@H]6C[C@@H](C(=O)O)C6(C)C)C(C)(C)[C@@H]5CC[C@@]4(C)[C@]3(C)CC[C@@]2(CCNCc2ccc(O[C@H]3CCOC3)cc2)CC1=O	92HT599	-	p24 / ELISA	-	<1 µM
CCCCSc1ccc(-c2cnc(C)c([C@H](OC(C)(C)C)C(=O)O)c2N2CCC(C)(C)CC2)nc1	NL4-3	-	luminescence	-	0.0068 µM
CC(C)C1=C2[C@H]3CC[C@@H]4[C@@]5(C)CC[C@H](OC(=O)CC(C)(C)C(=O)O)C(C)(C)[C@@H]5CC[C@@]4(C)[C@]3(C)CC[C@@]2(NC(=O)N2CCN(C(=O)OC(C)(C)C)CC2)CC1=O	IIIB	-	RT activity	30% human serum	<0.199 µM

A second listing of 2 rows from above:

compound,strain or isolate,changes,read by,setting,value
COc1ccc(N(C)C(=O)[C@H](Cc2cc(F)cc(F)c2)NC(=O)c2cc(F)c(F)cc2C(=O)N[C@@H](Cc2cc(F)cc(F)c2)C(=O)N(C)c2ccc(OC)cc2)cc1,NL4-3,-,luciferase,-,0.09 µM
Cc1cccc(Cl)c1OCCOc1ccc(-c2cnc(C)c([C@H](OC(C)(C)C)C(=O)O)c2N2CCC(C)(C)CC2)cn1,NL4-3,-,luminescence,-,0.005 µM